Pooled drug test results. Numbers come from NIAID ChemDB, via PubChem.

Shared fields: host cell toxicity; cell line: MT-4; read by: MTT / absorbance; read-out: CC50

Neighbouring rows are from separate reports. CCn is the concentration with n% toxicity to the cells.

structure	result
NNC(=O)c1csc(N2N=C(c3ccccc3)CC2c2ccc(Cl)cc2)n1	>125 µM
O=C1C=C2C=C[C@@H]3C[C@@]2(O1)[C@H]1CCCCN31	>100 µM
c1cc(CN2CCCNCCNCCCNCC2)ccc1CN1CCCNCCNCCCNCC1	>50 µM
O=C(N/N=C/c1cccc(O)c1)c1csc(N2N=C(c3ccccc3)CC2c2ccc(Cl)cc2)n1	66.85 µM
Cc1c(CC23CC4CC(CC(C4)C2)C3)nc(SCC(=O)Nc2ccc(S(N)(=O)=O)cc2)[nH]c1=O	4.99 µM
COc1cc(/C=N/NC(=O)c2csc(N3N=C(c4ccccc4)CC3c3ccc(Cl)cc3)n2)ccc1OCc1ccccc1	>125 µM
CCc1c(CC23CC4CC(CC(C4)C2)C3)nc(SCC(=O)Nc2ccc(C)cc2[N+](=O)[O-])[nH]c1=O	23.16 µM
COc1cccc(/C=N/NC(=O)c2csc(N3N=C(c4ccccc4)CC3c3ccc(Cl)cc3)n2)c1O	>125 µM
COc1ccc(CSc2nc(CC34CC5CC(CC(C5)C3)C4)c(C)c(=O)[nH]2)cc1	1.92 µM
Cc1cc(N=C/C=C/c2ccccc2)ccc1N1C(=O)c2ccc(Cl)cc2C1=O	0.538 µM
O=C(N/N=C/c1cccc([N+](=O)[O-])c1)c1csc(N2N=C(c3ccccc3)CC2c2ccc(Cl)cc2)n1	0.47 µM
Cc1cc(C)cc(S(=O)(=O)c2c(C(=O)NC(C)C(=O)NCc3ccncn3)[nH]c3ccc(Cl)cc23)c1	48.83 µM
CCc1c(CC23CC4CC(CC(C4)C2)C3)nc(SCc2ccc(OC)cc2)[nH]c1=O	10.32 µM
CC(=O)Nc1ccc(N2C(=O)c3ccc(Cl)cc3C2=O)c(C)c1	0.334 µM
COc1ccc(/C=N/NC(=O)c2csc(N3N=C(c4ccccc4)CC3c3ccc(Cl)cc3)n2)cc1	>125 µM
N#C/C=C1/c2cc(S)cc([N+](=O)[O-])c2-c2c1cc(S(=O)(=O)NCc1ccccc1)cc2[N+](=O)[O-]	>100 µM
CC(=S)Nc1ccc(N2C(=O)c3ccc(Cl)cc3C2=O)c(C)c1	0.164 µM
CCc1c(CC23CC4CC(CC(C4)C2)C3)nc(SCC(=O)Nc2ccc(C(C)=O)cc2Br)[nH]c1=O	20.54 µM

For reference, 3 entries again:

| structure | result |
|---|---|
| c1cc(CN2CCCNCCNCCCNCC2)ccc1CN1CCCNCCNCCCNCC1 | >50 µM |
| NNC(=O)c1csc(N2N=C(c3ccccc3)CC2c2ccc(Cl)cc2)n1 | >125 µM |
| N#C/C=C1/c2cc(S)cc([N+](=O)[O-])c2-c2c1cc(S(=O)(=O)NCc1ccccc1)cc2[N+](=O)[O-] | >100 µM |